These results are taken from PubChem BioAssay AID977628 (Broad Institute, 2014).

Inconclusive results are not listed. Calls of active or inactive are those of the source.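 Rule for the calls: active = compound lowering the normal-ribosome reporter at least twice as much as the humanized-ribosome reporter, growth loss under a set limit; inconclusive = no clear call, values can overlap the other calls; inactive = the rest.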

The test system of the test is E. coli WT GFP strain growth, fluorescence, 24 h. As to the kind of experiment: growth of wild-type and h24-humanized E. coli strains – h24 mutant RFP vs wild-type GFP, cherry-pick, dose response (AID 977628).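 Note: wild-type GFP and h24 humanized RFP strains co-cultured 1 to 1 per well.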

For orientation: AC50 means the midpoint of the concentration-response curve, whichever way the signal moves. Take `O=[N+]([O-])c1cc([N+](=O)[O-])c(Nc2ccccn2)c([N+](=O)[O-])c1`: the AC50 was inactive: > 100 µM.
